Measurements reported in PubChem BioAssay AID624099 (ICCB-Longwood, 2012).
This is an unselected part of about 21,000 reagents. In the full data, 497 (2.4%) were called active. 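Higher z means weaker E2 silencing; only reporter increases were scored, and knock-downs that hurt cell survival may mask genuine repressor factors.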 No sequences are given here.

Aim: 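Human genes that papillomavirus E2 requires to repress the HPV18 LCR promoter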 (primary screen)
Cell system: human C33A cervical carcinoma cells (HPV-negative) stably expressing BPV1 E2 and an HPV18 LCR luciferase reporter
Reagent: siRNA pool against human genes, 40 nM
Time to read-out: 72 h
Read-out: 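HPV18 LCR reporter light per well, converted to plate-wise z-scores that exclude control wells, and averaged over triplicate plates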
Reading the numbers: mean z-score and z-score: higher = stronger reporter signal, weaker E2 silencing
Active means: 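Mean z ≥ 2 together with z ≥ 2 in two or more of the three replicates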

Gene	mean z-score	z-score, replicate A	z-score, replicate B	z-score, replicate C	Outcome
H3C10	-1.12	-0.95	-1.1	-1.31	inactive
LMX1A	-0.39	-0.63	-0.43	-0.1	inactive
ASPM	0.46	0.76	0.37	0.26	inactive
AMMECR1	0.3	0.65	0.24	0.03	inactive
POU3F4	-0.83	-0.67	-0.84	-0.98	inactive
MAPK8IP2	0.49	0.04	0.47	0.96	inactive
MAF1	0.23	-0.04	0.21	0.53	inactive
LINC02914	-0.99	-1.09	-0.73	-1.16	inactive
CENPT	-0.35	-0.28	-0.46	-0.3	inactive
ADH1B	-0.38	-0.5	-0.41	-0.22	inactive
ALDH4A1	0.12	0.45	0.1	-0.2	inactive
AKR7A2	-0.33	-0.37	-0.7	0.08	inactive
LOC133185 (retired record)	0.19	0.02	0.26	0.29	inactive
RPS3AP47	0.69	1.07	0.58	0.42	inactive
EID2	-1.11	-0.93	-0.92	-1.47	inactive
ADCYAP1	-0.7	-0.69	-0.86	-0.56	inactive
HCK	0.48	0.31	0.55	0.58	inactive
RPAP3	-0.26	-0.04	-0.32	-0.41	inactive
FRG2DP	-0.2	0.36	-0.83	-0.14	inactive
HORMAD1	1	0.98	1.25	0.78	inactive
AIMP2	0.78	0.73	1.04	0.58	inactive
MIATNB	-0.15	-0.03	-0.42	-0.01	inactive
INTS9	-0.67	-0.78	-0.61	-0.64	inactive
NADK	-0.74	-0.29	-1.34	-0.58	inactive
GABRB2	-0.12	-0.2	-0.12	-0.06	inactive

The list goes on (7 carried over from the part before).
Gene	mean z-score	z-score, replicate A	z-score, replicate B	z-score, replicate C	Outcome
FRG2DP	-0.2	0.36	-0.83	-0.14	inactive
HORMAD1	1	0.98	1.25	0.78	inactive
AIMP2	0.78	0.73	1.04	0.58	inactive
MIATNB	-0.15	-0.03	-0.42	-0.01	inactive
INTS9	-0.67	-0.78	-0.61	-0.64	inactive
NADK	-0.74	-0.29	-1.34	-0.58	inactive
GABRB2	-0.12	-0.2	-0.12	-0.06	inactive
GNG10	1.22	1.04	1.41	1.22	inactive
SSX2IP	-0.65	-0.45	-0.66	-0.83	inactive
GGCX	1.27	1.76	1.18	0.86	inactive
LOC387880 (retired record)	0.68	0.91	0.36	0.78	inactive
RAB1B	0.05	-0.48	0.29	0.33	inactive
TMEM132D	-0.61	-0.65	-0.33	-0.84	inactive
SLAMF9	0.21	0.31	0.41	-0.1	inactive
CASP2	-1.17	-0.87	-1.32	-1.32	inactive
SGCZ	0.05	0.41	0.27	-0.53	inactive
GAP43	-0.4	-0.54	0.32	-0.98	inactive
ESF1	0.71	0.84	0.7	0.59	inactive
KMT2C	1.32	1.3	1.53	1.13	inactive
STKLD1	0.16	0.21	0.02	0.24	inactive
IGSF21	-0.13	-0.11	-0.18	-0.1	inactive
PRKX	0.01	0.21	-0.06	-0.13	inactive
GNG7	-0.22	0.11	-0.6	-0.16	inactive
TRIM56	-0.79	-1.15	-0.74	-0.47	inactive
RPL13AP24	1.02	0.82	1.26	0.98	inactive
FRAT1	-0.57	-0.46	-0.6	-0.65	inactive
LOC388746 (retired record)	0.71	0.89	0.49	0.74	inactive
KIFBP	-0.85	-1.05	-0.71	-0.8	inactive
APBA2	-0.24	-0.12	-0.35	-0.24	inactive
CEMIP2	-0.87	-0.62	-1.35	-0.65	inactive
KIAA1586	-0.3	-0.44	-0.59	0.12	inactive
SLC35F5	0.85	1.11	0.37	1.07	inactive
ZFAND4	-0.61	-0.42	-0.59	-0.82	inactive
LOC389702 (retired record)	0.25	0.46	0.12	0.17	inactive
APOA2	0.87	0.57	1.06	0.97	inactive
TLN2	-0.64	-0.66	-0.61	-0.65	inactive
PSD4	-0.04	-0.01	-0.13	0	inactive
PRICKLE3	1.49	1.27	1.5	1.7	inactive
RASA1	0.3	0.15	0.19	0.55	inactive
